Results published in publication PMC1664607 (PLoS Medicine, 2006).
The amount applied is not stated for every result.

How the values were obtained:
M. bovis BCG Tokyo = assay type: cell-based; conditions: 14C OPC-67683, 48 h incubation, after acetonitrile
[1] = Radioactivity distribution of 14C OPC-67683 in broth (control without bacterial culture); conditions: Control: 14C OPC-67683 in 7H9/TN-ADC broth, 48 h

With `C[C@]1(COc2ccc(N3CCC(Oc4ccc(OC(F)(F)F)cc4)CC3)cc2)Cn2cc([N+](=O)[O-])nc2O1` [OPC-67683, (R)-2-methyl-6-nitro-2-(4-[4-(4-trifluoromethoxyphenoxy)piperidin-1-yl]phenoxymethyl}-2,3-dihydroimidazo[2,1-b]oxazole] the “Total DPM, Pellet” value (M. bovis BCG Tokyo) was 182886.84 DPM, the “Total DPM, Supernatant” value (M. bovis BCG Tokyo) was 678566.21 DPM and the “Total DPM, Pellet” value [1] was 24558.06 DPM. For the same molecule, the “Total DPM, Supernatant” value [1] was 823295.30 DPM.
